Pooled drug test results. Numbers come from NIAID ChemDB, via PubChem.

All rows: tests in culture

An empty or dashed field is not shown.

SMILES	setting	read by	measure	strain	changes	organism	value
CNc1ccc2oc(C[C@@H]3OC4(CC[C@@H]3C)O[C@H](C(C)C(=O)c3ccc[nH]3)[C@H](C)C[C@H]4C)nc2c1C(=O)O		resazurin	MIC		T532 insertion	Mycobacterium aurum	0.64 µg/mL
Nc1ccc(S(=O)(=O)c2ccc(N)cc2)cc1			MIC	Isolate 842		Mycobacterium ulcerans	1 µg/mL
CC[C@@H](CO)NCCN[C@@H](CC)CO			MIC	2020-4		Mycobacterium avium complex	1.9 µg/mL
CO[C@H]1/C=C/O[C@@]2(C)Oc3c(C)c(O)c4c(O)c(c(N5CCN(Cc6c(C)cc(C)cc6C)CC5)c(O)c4c3C2=O)NC(=O)/C(C)=C\C=C\[C@H](C)[C@H](O)[C@@H](C)[C@@H](O)[C@@H](C)[C@H](OC(C)=O)[C@@H]1C			MBC	9141		Mycobacterium avium	4 µg/mL
C(=N\Nc1nncs1)/c1cn(Cc2ccccc2)c2ccccc12	24 h	broth dilution	MIC100	1173P2		Mycobacterium bovis BCG	125 µg/mL
O=C(Nc1ccc(Cl)cc1)c1cc(Cl)ccc1OP(=O)(Oc1ccccc1)c1ccccc1	14 d		MIC	My 6509/96		Mycobacterium kansasii	8 µM
CC[C@@H](C(=O)[C@@H](C)[C@@H](O)[C@H](C)[C@@H]1O[C@@H]([C@@H](CC)C(=O)O)CC[C@@H]1C)[C@H]1O[C@@]2(C=C[C@@H](O)[C@@]3(CC[C@@](C)([C@H]4CC[C@](O)(CC)[C@H](C)O4)O3)O2)[C@H](C)C[C@@H]1C		resazurin	MIC		T532 insertion	Mycobacterium aurum	0.08 µg/mL
O=C(Nc1ccc(Br)cc1)c1cc(Cl)ccc1OP(=O)(c1ccccc1)c1ccccc1	21 d		MIC	My 235/80		Mycobacterium kansasii	8 µM
C(=N\Nc1nncs1)/c1cn(CC2CCC2)c2ccccc12	48 h	broth dilution	MIC100	1173P2		Mycobacterium bovis BCG	31.25 µg/mL
O=C(Nc1ccc(C(F)(F)F)cc1)c1cc(Br)ccc1OP(=O)(OCc1ccccc1)OCc1ccccc1	14 d		MIC	My 235/80		Mycobacterium kansasii	16 µM
COc1cc(Cc2cnc(N)nc2N)cc(OC)c1Br			MIC	Isolate 8756		Mycobacterium ulcerans	4 µg/mL
O=C(Nc1ccc(Cl)cc1)c1cc(Cl)ccc1OP(=O)(c1ccccc1)c1ccccc1	21 d		MIC	My 6509/96		Mycobacterium kansasii	8 µM
CN(C)c1cc(NC(=O)CNC(C)(C)C)c(O)c2c1C[C@H]1C[C@H]3[C@H](N(C)C)C(=O)C(C(N)=O)=C(O)[C@@]3(O)C(=O)C1=C2O		broth dilution	MIC	V150		Mycobacterium massiliense	1 µg/mL
O=C(Nc1ccc(Br)cc1)c1cc(Cl)ccc1OP(=O)(Oc1ccccc1)c1ccccc1	7 d		MIC	My 235/80		Mycobacterium kansasii	4 µM
C(=N\Nc1nncs1)/c1cn(CC2CC2)c2ccccc12	24 h	broth dilution	MIC100	1173P2		Mycobacterium bovis BCG	7.81 µg/mL
C[C@@H]1CN(c2c(F)c(N)c3c(=O)c(C(=O)O)cn(C4CC4)c3c2F)C[C@H](C)N1		broth dilution	MIC	17		Mycobacterium avium complex	2 µg/mL
O=C(Nc1ccc(Cl)c(Cl)c1)c1cc(Cl)ccc1OP(=O)(OCc1ccccc1)OCc1ccccc1	14 d		MIC	My 6509/96		Mycobacterium kansasii	125 µM
Fc1ccccc1Cn1cc(/C=N/Nc2nncs2)c2ccccc21	48 h	broth dilution	MIC100	1173P2		Mycobacterium bovis BCG	250 µg/mL
CC[C@H]1OC(=O)[C@H](C)[C@@H](O[C@H]2C[C@@](C)(OC)[C@@H](O)[C@H](C)O2)[C@H](C)[C@@H](O[C@@H]2O[C@H](C)C[C@H](N(C)C)[C@H]2O)[C@](C)(OC)C[C@@H](C)C(=O)[C@H](C)[C@@H](O)[C@]1(C)O		broth dilution	MIC	V30		Mycobacterium massiliense	0.125 µg/mL
Clc1ccccc1Cn1cc(/C=N/Nc2nncs2)c2ccccc21	48 h	broth dilution	MIC100	1173P2		Mycobacterium bovis BCG	31.25 µg/mL
O=C(Nc1ccc(Br)cc1)c1cc(Cl)ccc1OP(=O)(Oc1ccccc1)Oc1ccccc1	7 d		MIC	My 235/80		Mycobacterium kansasii	4 µM

A second listing of 2 rows from above:

C(=N\Nc1nncs1)/c1cn(CC2CCC2)c2ccccc12 ; setting: 48 h ; read by: broth dilution ; measure: MIC100 ; strain: 1173P2 ; organism: Mycobacterium bovis BCG ; value: 31.25 µg/mL
C(=N\Nc1nncs1)/c1cn(CC2CC2)c2ccccc12 ; setting: 24 h ; read by: broth dilution ; measure: MIC100 ; strain: 1173P2 ; organism: Mycobacterium bovis BCG ; value: 7.81 µg/mL

Conditions beyond the fields shown may differ between rows. MIC50, MIC90 and the like: level of inhibition, or share of isolates inhibited.